Anti-infective test results gathered from many reports (values: NIAID ChemDB through PubChem).

Common to all: target-level tests

Rows are shuffled and stem from different studies.

SMILES	method	strain	protein	dose	organism	measure	value
CO[C@@H]1[C@H](O)[C@@H](COP(=O)(O)OP(=O)(O)OP(=O)(O)O)O[C@H]1n1ccc2c(N)ncnc21			NS5B delta .21		Hepatitis C virus	IC50	11 µM
CC(C)COC(=O)N[C@@H](CCC(=O)O)CC(=O)N[C@H](CC(C)C)C(=O)N[C@H](CC(F)F)C(=O)NCCc1ccc(C(=O)O)cc1Cl			NS3 serine protease		Hepatitis C virus	IC50	0.6 µM
C=CC1CC1(NC(=O)[C@@H]1C[C@@H](OC(=O)Nc2ccccc2F)CN1C(=O)[C@@H](NC(=O)OC(C)(C)C)C(C)(C)C)C(=O)NS(=O)(=O)C1CC1		BMS/H77C/J416S	NS3/NS4A protease		Hepatitis C virus	IC50	0.1–1 µM
O=C(Nc1cscc1-c1nc(C(=O)O)c(O)c(=O)[nH]1)OCc1ccccc1Cl			HCV polymerase		Hepatitis C virus	IC50	<25 µM
CCCN(NC(=O)[C@H]1C[C@@H](OCc2ccccc2)CN1C(=O)[C@@H](NC(=O)[C@@H](OC(=O)[C@@H](CC(=O)O)NC(=O)[C@H](CC(=O)O)NC(C)=O)[C@H](C)CC)C(C)C)C(=O)OCc1ccccc1			Serine protease		Hepatitis C virus	IC50	0.8 µM
Cn1cccc(CCC2(C3CCCC3)CC(=O)CC(=O)O2)c1=O			Nonstructural protein 5B		Hepatitis C virus	IC50	>50 µM
NC(=O)c1c(N)sc2c1CCCCC2	RNase H / substrate cleavage	gtD	RNase H	10 µM	Hepatitis B virus	inhibition	>43%
O=C(O)c1cc2nc(-c3ccco3)c(C3CCCCC3)c(=O)n2[nH]1			RNA-dependent RNA polymerase		Hepatitis C virus	IC50	1–10 µM
O=C(/C=C/CCC(=O)Nc1ccc(-c2nc3ccccc3[nH]2)cc1)Nc1ccc(-c2nc3ccccc3[nH]2)cc1			Nonstructural protein 3 NTPase/helicase		Hepatitis C virus	IC50	0.7 µM
C=CCOC(=O)N[C@@H]1C[C@@H](C(=O)N[C@H](C=O)CC)N(C(=O)[C@@H](NC(=O)[C@@H](NC(=O)c2cnccn2)C(C)C)C(C)C)C1			NS3 protease		Hepatitis C virus	Ki	>100 µM
CC(=O)N[C@@H](CC(=O)O)C(=O)N[C@@H](Cc1cc2ccccc2[nH]1)C(=O)N[C@H](C(=O)N[C@@H](CCC(=O)O)C(=O)N[C@@H](CC1CCCCC1)C(=O)N[C@@H](CS)C(=O)C(=O)O)C(c1ccccc1)c1ccccc1			NS3/NS4A serine protease		Hepatitis C virus	Ki	330 µM
CC[C@@H](C=O)NC(=O)[C@@H]1C[C@@H](OCc2ccccc2)CN1C(=O)[C@@H](NC(=O)c1c[nH]c2ccccc12)C(C)C			NS3 protease		Hepatitis C virus	Ki	1–100 µM
O=C(NC(Cc1c[nH]c2ccc(O)cc12)C(=O)O)c1ccc2c(c1)nc(-c1ccc3cc(-c4ccccc4)cnc3c1)n2C1CCCCC1			NS5B polymerase	33 µM	Hepatitis C virus	inhibition	99.3%
C=CC1CC1(NC(=O)[C@@H]1C[C@@H](OC(=O)Nc2cccc(SC)c2)CN1C(=O)[C@@H](NC(=O)OC(C)(C)C)C(C)(C)C)C(=O)NS(=O)(=O)C1CC1		BMS/H77C/J416S	NS3/NS4A protease		Hepatitis C virus	IC50	<0.1 µM
NC(N)=NCc1ccc(Oc2ccccc2)cc1	substrate cleavage		miRNA-122		Hepatitis C virus	IC50	>1000 µM
Nc1nc2c(ncn2[C@@H]2O[C@H](COP(=O)(O)OP(=O)(O)OP(=O)(O)O)C[C@H]2O)c(=O)[nH]1			NS5B delta .21		Hepatitis C virus	IC50	0.6 µM
CC(C)Oc1ccc(CCC2(C3CCCC3)CC(=O)CC(=O)O2)cc1			Nonstructural protein 5B		Hepatitis C virus	IC50	1–10 µM
COC(=O)Oc1nsnc1N1CCOCC1	RNase H / substrate cleavage	gtH	RNase H	10 µM	Hepatitis B virus	inhibition	>43%
COc1cccc(Oc2ccc(-c3cnc4c(-c5nn[nH]n5)cnn4c3C3CCCCC3)cc2)c1			RNA-dependent RNA polymerase		Hepatitis C virus	IC50	<1 µM
CC(C)CCC1(C2CCCC2)CC(O)=CC(=O)O1			Nonstructural protein 5B		Hepatitis C virus	IC50	>50 µM
COc1ccc2ccccc2c1/C=N/NC(=O)c1cc(O)c(O)c(O)c1	RNase H / substrate cleavage	gtH	RNase H	10 µM	Hepatitis B virus	inhibition	<24%
COc1ccc2occ(-c3ccc4cc(-c5nc6cc(C(=O)O)ccc6n5C5CCCCC5)ccc4n3)c2c1			NS5B polymerase	33 µM	Hepatitis C virus	inhibition	101%
O=C(O)c1cc2nc(-c3ccc(Cl)cc3)cc(N3CCCCC3)n2n1			RNA-dependent RNA polymerase		Hepatitis C virus	IC50	>10 µM
C=CC1CC1(NC(=O)[C@@H]1C[C@@H](OC(=O)Nc2cccc(C)c2C)CN1C(=O)[C@@H](NC(=O)OC(C)(C)C)C(C)(C)C)C(=O)NS(=O)(=O)C1CC1		BMS/H77C/J416S	NS3/NS4A protease		Hepatitis C virus	IC50	<0.1 µM
CC(=O)N[C@@H](CC(=O)O)C(=O)N[C@H](CC(C(=O)O)C(=O)O)C(=O)N[C@@H](CC1CCCCC1)C(=O)N[C@@H](CCC(=O)O)C(=O)N[C@@H](CC1CCCCC1)C(=O)N[C@@H](CS)C(=O)C(=O)O			NS3/NS4A serine protease		Hepatitis C virus	Ki	0.0003 µM
O=C(NCc1ccc([N+](=O)[O-])cc1)c1nc2ccccc2c(=O)n1O	fluorescence	1b	NS5B		Hepatitis C virus	IC50	>50 µM
CCCCCCCCCCCCCC1=C(O)C(=O)C=C(O)C1=O			Nonstructural protein 3 protease	100 µM	Hepatitis C virus	inhibition	100%
CCCC(NC(=O)[C@H](CC1CCCCC1)NC(=O)[C@@H](NC(=O)[C@H](CC(C)C)NC(=O)[C@@H](CCC(=O)O)NC(=O)[C@H](CC(=O)O)NOC(=O)CCC(=O)O)[C@H](C)CC)C(=O)c1nn[nH]n1			NS3 protease		Hepatitis C virus	Ki	0.3 µM
O=C(NCc1ccc(F)cc1)c1nc2ccccc2c(=O)n1O	fluorescence	1b	NS5B		Hepatitis C virus	IC50	>50 µM
O=c1c(O[C@@H]2O[C@H](CO)[C@@H](O)[C@H](O)[C@H]2O)c(-c2ccc(O)c(O)c2)oc2cc(O)cc(O)c12			Nonstructural protein 3 protease	100 µM	Hepatitis C virus	inhibition	53.8%
Nc1nc2c(ccn2[C@@H]2O[C@H](COP(=O)(O)OP(=O)(O)OP(=O)(O)O)C[C@H]2O)c(=O)[nH]1			NS5B delta .21		Hepatitis C virus	IC50	7.2 µM
O=C(O)c1cc2nccc(-c3ccccc3-c3ccc(Cl)cc3)n2n1			RNA-dependent RNA polymerase		Hepatitis C virus	IC50	1–10 µM
CC[C@H](NC(=O)[C@H](CC1CCCCC1)NC(=O)[C@@H](NC(=O)[C@H](CC(C)C)NC(=O)[C@@H](CCC(=O)O)NC(=O)[C@H](CC(=O)O)NC(C)=O)[C@H](C)CC)C(=O)/C=C/c1nccs1			NS3 protease		Hepatitis C virus	Ki	0.32 µM
O=c1c(O[C@@H]2OC[C@H](O)[C@H](O)[C@H]2O)c(-c2ccc(O)c(O)c2)oc2cc(O)cc(O)c12			Nonstructural protein 3 protease	100 µM	Hepatitis C virus	inhibition	50.1%
COc1cc(CC(NC(=O)c2cnn3c(C4CCCCC4)c(-c4ccc(F)cc4)cnc23)C(=O)O)ccc1O			RNA-dependent RNA polymerase		Hepatitis C virus	IC50	<1 µM
CC[C@@H](C=O)NC(=O)[C@@H]1C[C@@H](OCc2noc(-c3c(C)noc3C)n2)CN1C(=O)[C@@H](NC(=O)[C@@H](NC(=O)c1cnccn1)C(C)C)C(C)C			NS3 protease		Hepatitis C virus	Ki	1–100 µM
C=CC1CC1(NC(=O)[C@@H]1C[C@@H](OC(=O)Nc2c(C)cccc2CC)CN1C(=O)[C@@H](NC(=O)OC(C)(C)C)C(C)(C)C)C(=O)NS(=O)(=O)C1CC1		BMS/H77C/J416S	NS3/NS4A protease		Hepatitis C virus	IC50	1–10 µM
CC[C@@H](C)[C@H](NC(=O)[C@H](CC(C)C)NC(=O)[C@@H](CCC(=O)O)NC(=O)[C@H](CC(=O)O)NOC(=O)CCC(=O)O)C(=O)N[C@@H](CC1CCCCC1)C(=O)NC1(C(=O)NS(=O)(=O)c2ccccc2)CC1			NS3 protease		Hepatitis C virus	Ki	0.0038 µM
Nc1ccc(CNC(=O)c2nc3ccccc3c(=O)n2O)cc1	fluorescence	1b	NS5B		Hepatitis C virus	IC50	29.9 µM
CC[C@H](C)[C@H](NC(=O)[C@H](CCC(=O)O)NC(=O)[C@@H](NC(=O)[C@@H](CC(C(=O)O)C(=O)O)NC(=O)[C@H](CC(=O)O)NC(C)=O)C(c1ccccc1)c1ccccc1)C(=O)N[C@@H](CS)C(=O)C(=O)O			NS3/NS4A serine protease		Hepatitis C virus	Ki	0.0002 µM
CC(C)(C)OC(=O)NCC(C)(C)c1cccc(CCC2(C3CCCC3)CC(=O)CC(=O)O2)c1			Nonstructural protein 5B		Hepatitis C virus	IC50	10–50 µM
COc1cc(COc2cccc(-c3cnc4c(C(=O)O)cnn4c3C3CCCCC3)c2)cc(OC)c1			RNA-dependent RNA polymerase		Hepatitis C virus	IC50	1–10 µM
C=CC1CC1(NC(=O)[C@@H]1C[C@@H](OC(=O)N(C(C)C)C(C)C)CN1C(=O)[C@@H](NC(=O)OC(C)(C)C)C(C)(C)C)C(=O)NS(=O)(=O)C1CC1		BMS/H77C/J416S	NS3/NS4A protease		Hepatitis C virus	IC50	<0.1 µM
O=C(O)c1ccc(-c2cccc(/C=N/NC(=O)c3cc(O)c(O)c(O)c3)c2)cc1	RNase H / substrate cleavage	gtD	RNase H	10 µM	Hepatitis B virus	inhibition	>43%
CC[C@@H](C=O)NC(=O)[C@@H]1C[C@@H](OCc2ccccc2)CN1C(=O)[C@@H](NC(=O)C1Cc2ccccc2CN1)C(C)C			NS3 protease		Hepatitis C virus	Ki	1–100 µM
CC(C)(C)OC(=O)CC[C@@H](CC(=O)C(=O)NCc1ccc(Cl)cc1)NC(=O)C[C@@H](NC(=O)C[C@@H](NC(=O)C[C@@H](NC(=O)CCC(=O)O)C1CCCCC1)C1CCCCC1)C1CCCCC1	FRET / fluorescence		Nonstructural protein 3/4A		Hepatitis C virus	IC50	1 µM
C=CC1CC1(NC(=O)[C@@H]1C[C@@H](OC(=O)Nc2ccccc2C(=O)OC(C)C)CN1C(=O)[C@@H](NC(=O)OC(C)(C)C)C(C)(C)C)C(=O)NS(=O)(=O)C1CC1		BMS/H77C/J416S	NS3/NS4A protease		Hepatitis C virus	IC50	<0.1 µM
O=C(O)c1cc(Br)ccc1NS(=O)(=O)c1cc(Cl)c(Cl)cc1Cl	nucleotide incorporation	gt 1	HCV NS5B polymerase		Hepatitis C virus	IC50	9 µM
CC(=O)N[C@@H](CC(=O)O)C(=O)N[C@H](Cc1cc2ccccc2[nH]1)C(=O)N[C@H](C(=O)N[C@@H](CCC(=O)O)C(=O)N[C@@H](CC1CCCCC1)C(=O)N[C@@H](CS)C(=O)C(=O)O)C(c1ccccc1)c1ccccc1			NS3/NS4A serine protease		Hepatitis C virus	Ki	1.4 µM
O=C(O)c1cc2nc(-c3ccc(Cl)cc3)cc(NCc3ccc(Cl)cc3)n2n1			RNA-dependent RNA polymerase		Hepatitis C virus	IC50	>10 µM
Cc1cc(NS(=O)(=O)c2cc(Cl)c(Cl)cc2Cl)no1	nucleotide incorporation	gt 1	HCV NS5B polymerase		Hepatitis C virus	IC50	100 µM
COc1ccc(CCC2(C3CCCC3)CC(=O)CC(=O)O2)cc1C			Nonstructural protein 5B		Hepatitis C virus	IC50	1–10 µM
CC(=O)N[C@@H](CC(=O)O)C(=O)N[C@H](CC(C(=O)O)C(=O)O)C(=O)N[C@H](C(=O)N[C@@H](CCC(=O)O)C(=O)N[C@@H](CC1CCCCC1)C(=O)N[C@@H](CC(F)F)C(=O)C(=O)O)C(c1ccccc1)c1ccccc1			NS3/NS4A serine protease		Hepatitis C virus	Ki	0.00002 µM
O=C(O)c1cc2nc(-c3ccc(F)cc3)cc(-c3ccc(Cl)cc3Cl)n2n1			RNA-dependent RNA polymerase		Hepatitis C virus	IC50	>10 µM
CC(=O)N[C@@H](CC(=O)O)C(=O)N[C@H](CC(C(=O)O)C(=O)O)C(=O)N[C@H](C(=O)N[C@@H](CCC(=O)O)C(=O)N[C@@H](CC1CCCCC1)C(=O)N[C@@H](CS)C(=O)C(=O)O)C(C)C			NS3/NS4A serine protease		Hepatitis C virus	Ki	0.019 µM
CC[C@H](C)[C@H](NC(=O)[C@H](CC(C)C)NC(=O)[C@@H](CCC(=O)O)NC(=O)[C@H](CC(=O)O)NC(C)=O)C(=O)N[C@@H](CC1CCCCC1)C(=O)N[C@@H](CS)C(=O)O			NS3 protease		Hepatitis C virus	Ki	1.54 µM

a–b is a range or a potency band. An empty or dashed field is not shown. ICn: concentration for n% inhibition. Percent inhibition refers to the dose given; in toxicity tests it is the harm to the cells.